Data taken from PubChem BioAssay AID1117264 (The Scripps Research Institute Molecular Screening Center, 2014).
This is a selection; strong and weak results do not stand in their true shares. Active and inactive are the calls of the source.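 How the source made its calls: active means inhibition above the mean inhibition across all screened compounds plus 3 SD (cut at about 11% in these data); inactive means the rest.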

Sequences of proteins named here, by UniProt entry; tags and fusion partners are left off. A change or cut given only in a name is not applied to a line headed by its entry.
UniProt P86926: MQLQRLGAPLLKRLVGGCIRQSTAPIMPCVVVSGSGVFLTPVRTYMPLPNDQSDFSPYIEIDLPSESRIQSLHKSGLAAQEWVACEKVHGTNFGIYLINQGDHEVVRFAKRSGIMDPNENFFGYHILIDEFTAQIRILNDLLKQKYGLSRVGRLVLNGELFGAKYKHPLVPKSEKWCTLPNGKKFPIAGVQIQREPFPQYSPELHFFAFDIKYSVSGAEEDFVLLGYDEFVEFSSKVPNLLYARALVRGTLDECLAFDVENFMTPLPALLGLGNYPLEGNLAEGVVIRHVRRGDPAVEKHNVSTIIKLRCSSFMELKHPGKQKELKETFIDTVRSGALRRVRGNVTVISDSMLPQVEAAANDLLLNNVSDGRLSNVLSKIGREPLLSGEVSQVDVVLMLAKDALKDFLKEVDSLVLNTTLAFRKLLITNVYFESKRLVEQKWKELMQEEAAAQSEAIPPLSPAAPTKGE

Target: RNA-editing ligase 1, mitochondrial (Trypanosoma brucei brucei) (UniProt P86926)
Assay: T. brucei editing ligase REL1 blockade – biochemical, FRET fluorescence, primary screen (AID 1117264);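 further: 0% = plate median of test wells and 100% = NSC42067 control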
Conditions: TbREL1 RNA ligation, at 9.66 µM, active compounds read high

Row | SMILES | inhibition
1 | CCN(N=Nc1nonc1N)c1nonc1N | inactive: -0.23%
2 | CN1CCCC(OC(=O)C(c2ccccc2)c2ccccc2)C1 (stereo unspecified) | inactive: -2.08%
3 | NC(=O)c1cc([N+](=O)[O-])cc([N+](=O)[O-])c1N | inactive: -0.02%
4 | CC(=O)N1C2C3N(C(C)=O)C1C1N(C(C)=O)C(C(N1C(C)=O)N3C(C)=O)N2C(C)=O | inactive: -1.21%
5 | COc1ccc(C2=NCC(CBr)S2)cc1 (stereo unspecified) | inactive: 6.83%
6 | CC(C)c1nc(Nc2ccccc2)n(P(=O)(N(C)C)N(C)C)n1 | inactive: -0.94%
7 | Nc1ccc([As](=O)(O)c2ccc(N)cc2)cc1 | inactive: 3.05%
8 | O=P1(N(CCCl)CCCl)OCCCS1 (stereo unspecified) | inactive: 1.93%
9 | CC(C)(C)C(=O)NC(Sc1ccncn1)C(Cl)(Cl)Cl (stereo unspecified) | inactive: -6.94%
10 | O=C(OC1CN2CCC1CC2)c1cccc(Cl)c1 (stereo unspecified) | inactive: 0.71%
11 | c1nnnn1CCn1cnnn1 | inactive: 3.23%
12 | O=P1(Nc2nc3ccc(Cl)cc3s2)COc2ccccc2O1 (stereo unspecified) | inactive: -0.34%
13 | CC(=O)Nc1ccc([As](=O)(O)O)c(O)c1 | inactive: -1.72%
14 | C[C@@H]1C=CCP(=O)(Oc2ccccc2)O1 (stereo partly specified) | inactive: 4.91%
15 | CC(NC(=O)COC(=O)C(O)(c1ccccc1)c1ccccc1)c1ccccc1 (stereo unspecified) | inactive: -1.81%
16 | CN(C)C(=O)c1cc([N+](=O)[O-])cc2c1-c1c(cc([N+](=O)[O-])cc1[N+](=O)[O-])C2=O | inactive: 4.99%

Row | SMILES | inhibition
17 | O=[As](O)(O)c1cccnc1 | inactive: 1.91%
18 | COc1cc(C(=O)NCC2(N3CCOCC3)CCCCC2)cc(Cl)c1OC(C)C | inactive: -0.97%
19 | CC(C)/C=N\N=C(\N)N[N+](=O)[O-] | inactive: 0.11%
20 | Cc1nn(-c2ccccc2)c2c1P(=O)(N1CCOCC1)N(C)C(c1ccccc1)=N2 (stereo unspecified) | inactive: -0.04%
21 | Cc1ccc(C(=O)OC2CN3CCC2CC3)cc1 (stereo unspecified) | inactive: 6.04%
22 | Nc1cccc([As](=O)(O)c2ccccc2)c1 | inactive: 0.68%
23 | Cc1ccc(OCC(=O)OC2CN3CCC2CC3)cc1 (stereo unspecified) | inactive: 1.06%
24 | O=P1(Nc2ccc(Br)cn2)COc2ccccc2OC1 | inactive: 3.39%
25 | Cc1cc(SC(NC(=O)c2ccccc2)C(Cl)(Cl)Cl)nc(C(C)C)n1 (stereo unspecified) | inactive: -3.3%
26 | CCOC(=O)Nc1ccc([As](=O)(O)O)c(O)c1 | inactive: 1.05%
27 | O=C(OC1CN2CCC1CC2)c1cccc([N+](=O)[O-])c1 (stereo unspecified) | inactive: -0.34%
28 | CCOC(=O)c1ccc(NC(=O)C(C)(CCl)SC)cc1 (stereo unspecified) | inactive: 0.26%
29 | O=C(OC1CN2CCC1CC2)C12CC3CC(CC(C3)C1)C2 (stereo unspecified) | inactive: 4.27%
30 | [N-]=[N+]=NC1CCCCC1NC(=O)c1cc([N+](=O)[O-])cc([N+](=O)[O-])c1 (stereo unspecified) | inactive: 1.25%
31 | CCN(CC)C(=S)SC(NC=O)C(Cl)(Cl)Cl (stereo unspecified) | inactive: 4.49%
